PubChem BioAssay AID1259374 (The Scripps Research Institute Molecular Screening Center, 2018)
The list shows a part of the results, in another mix than the full data. The source made the active and inactive calls. Rule as the data show it: active = inhibition above about 50%; inactive = the rest.

By UniProt entry, the sequences of proteins in these tests, tags left out. Where a name states a change or a piece, a line headed by the entry shows the natural chain unless it says otherwise.
UniProt O75030: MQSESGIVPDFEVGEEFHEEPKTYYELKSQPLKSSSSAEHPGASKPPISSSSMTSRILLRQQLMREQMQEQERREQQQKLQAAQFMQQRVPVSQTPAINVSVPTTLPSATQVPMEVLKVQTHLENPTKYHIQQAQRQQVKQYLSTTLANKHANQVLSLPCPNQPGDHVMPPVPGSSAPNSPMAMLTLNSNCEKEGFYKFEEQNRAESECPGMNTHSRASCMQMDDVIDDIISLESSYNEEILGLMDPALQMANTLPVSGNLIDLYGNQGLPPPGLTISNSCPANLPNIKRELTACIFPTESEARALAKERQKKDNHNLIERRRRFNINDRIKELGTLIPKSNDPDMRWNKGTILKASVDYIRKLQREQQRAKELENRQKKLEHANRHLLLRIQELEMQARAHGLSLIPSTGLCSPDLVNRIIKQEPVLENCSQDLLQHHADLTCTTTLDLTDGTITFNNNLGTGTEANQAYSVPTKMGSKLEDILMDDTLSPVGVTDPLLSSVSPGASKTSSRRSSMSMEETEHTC

biological target: Microphthalmia-associated transcription factor (Homo sapiens) (UniProt O75030); assay: MITF inhibitors, primary screen, biochemical, AlphaScreen, human (AID 1259374); details: AlphaScreen MITF homodimerization, bead proximity signal; at 2.6 µM; hits give high values;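 also: 0% = vehicle wells with protein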

Row | Structure (SMILES) | inhibition
1 | O=C(O)Cc1ccc(N(CCCl)CCCl)cc1 | inactive: 0.59%
